Compound potency records, mixed from different reports. Data source: NIAID ChemDB in PubChem.

Shared fields: growth or infection tests

MIC50, MIC90 and the like: level of inhibition, or share of isolates inhibited. Rows are shuffled and stem from different studies. ECn: concentration that inhibits the pathogen or its effect by n%. Percent inhibition refers to the dose given; in toxicity tests it is the harm to the cells. a–b is a range or a potency band. An empty or dashed field is not shown.

structure	dose	measure	method	setting	strain	agent	result
Cc1ccc(/C=N/Nc2ccnc3cc(Cl)ccc23)cc1	-	MFC	-	-	-	Candida lipolytica	40 µg/mL
CC(=O)c1ccc(B(O)O)cc1	-	MFC	turbidity	-	-	Candida tenuis	31.2 µg/mL
CCC(C)c1ccc(Cn2cc(CN3CCN([C@H](C)[C@](O)(Cn4cncn4)c4ccc(F)cc4F)CC3)c3ccccc32)cc1	-	MIC80	resazurin	-	ATCC 64548	Candida albicans	0.125 µg/mL
COc1ccccc1C1SCC(=O)N1CC(=O)O	-	EC50	broth dilution	-	-	Candida parapsilosis	79.49 µM
c1ccc(C(c2ccccc2)n2cncn2)cc1	-	MFC	broth dilution	-	-	Candida dubliniensis	256 µg/mL
O=C(O)C(Cc1ccccc1)N1C(=O)CSC1c1ccc(Cl)cc1	-	EC50	broth dilution	-	-	Candida parapsilosis	56.17 µM
OB1OCc2cc(F)ccc21	-	MFC	turbidity	-	-	Candida tenuis	0.9 µg/mL
CC(=O)OC[C@H]1O[C@@H](O[C@@H]2[C@@H](N=[N+]=[N-])[C@H](O)[C@H](O)[C@H]3OC(C)(C)O[C@H]32)[C@H](OC(C)=O)[C@@H](OC(C)=O)[C@H]1OC(C)=O	250 µg/mL	inhibition	broth dilution / turbidity	-	C 131	Candida tropicalis	20.16%
C=CCc1ccc(OC)c(OC)c1	-	MIC90	turbidity	-	3178	Candida tropicalis	345 µg/mL
C[C@@H](c1ncncc1F)[C@](O)(Cn1cncn1)c1ccc(F)cc1F	-	MIC50	broth dilution	-	-	Candida guilliermondii	0.03 µg/mL
Cc1ccccc1N1C(=O)C[C@@H](C)C1=O	-	MIC	broth dilution / turbidity	-	CCC 134-2000	Candida lusitaniae	125 µg/mL
O/N=C\c1ccc(F)cc1	-	MIC	-	-	-	Candida famata	3600 µM
C[C@@H](N1CCN(Cc2cn(Cc3ccc(F)cc3)c3ccccc23)CC1)[C@](O)(Cn1cncn1)c1ccc(F)cc1F	-	MIC80	resazurin	-	ATCC 90028	Candida albicans	2 µg/mL
O/N=C\c1ccccc1Cl	-	MIC	-	-	-	Candida famata	1410 µM
OC(CCn1ccnc1)c1ccc(Br)cc1	-	MIC	broth dilution	-	RTCC 1377	Candida guilliermondii	>64 µg/mL
O=C(c1ccccc1)C(c1ccccc1)n1ccnc1	-	MIC90	agar	-	-	Candida glabrata	128 µg/mL
O/N=C\c1ccccc1	-	MIC100	-	-	-	Candida famata	8260 µM
C[C@@H]1C(=O)N(CCc2ccccc2)C(=O)[C@@H]1C	-	MIC	broth dilution / turbidity	-	CCC 134-2000	Candida lusitaniae	62.5 µg/mL
COc1ccc(/C=N\O)cc1	-	MIC100	broth dilution	-	-	Candida lipolytica	6620 µM
CC[C@@H]([C@H](C)O)n1ncn(-c2ccc(N3CCN(c4ccc(OC[C@@H]5CO[C@@](Cn6cncn6)(c6ccc(F)cc6F)C5)cc4)CC3)cc2)c1=O	-	EC90	broth dilution	pH 6	40 isolates	Candida glabrata	8 µg/mL
O=C(c1ccccc1)C(c1ccccc1)n1cnc2ccccc21	-	MFC	broth dilution	-	-	Candida glabrata	256 µg/mL
CCCCCCCCCn1cc[n+](COCCCCOC[n+]2ccn(CCCCCCCCC)c2)c1	-	MIC100	agar diffusion	-	ATCC 6258	Candida krusei	9 µM
C[C@@H](c1ncncc1F)[C@](O)(Cn1cncn1)c1ccc(F)cc1F	-	MIC50	-	-	-	Candida lusitaniae	0.008–0.5 µg/mL
O=C(O)C(Cc1ccccc1)N1C(=O)CSC1c1c(Cl)cccc1Cl	-	EC50	broth dilution	-	-	Candida parapsilosis	13.54 µM
Clc1ccc(C(c2ccccc2)n2cncn2)cc1	-	MIC90	agar	-	-	Candida glabrata	0.5 µg/mL
COC(=O)[C@H]1[C@@H]2C[C@@H](O[C@@H]3O[C@H](C)[C@@H](O)[C@H](N)[C@@H]3O)/C=C/C=C/C=C/C=C/C=C/C=C/C=C/[C@H](C)[C@@H](O)[C@H](C)[C@H](C)OC(=O)C[C@H](O)C[C@H](O)[C@@H](O)CC[C@H](O)C[C@H](O)C[C@](O)(C[C@@H]1O)O2	-	EC90	broth dilution	pH 5	40 isolates	Candida glabrata	1 µg/mL
Cc1ccc(C(O)c2cccc(C(O)CCn3ccnc3)c2)cc1	-	MIC	broth dilution	-	RTCC 1019	Candida kefyr	16 µg/mL
CCCCn1cc[n+](COCCOC[n+]2ccn(CCCC)c2)c1	-	MIC100	agar diffusion	-	ATCC 6258	Candida krusei	1634 µM
O=C(c1ccccc1)C(c1ccccc1)n1nnc2ccccc21	-	MIC90	agar	-	-	Candida glabrata	>256 µg/mL
C[C@@H](N1CCN(Cc2cn(Cc3ccc(C(F)(F)F)cc3)c3cc(Cl)ccc23)CC1)[C@](O)(Cn1cncn1)c1ccc(F)cc1F	-	MIC80	resazurin	-	ATCC 64548	Candida albicans	0.125 µg/mL
C[C@@H]1CC(=O)N(c2ccccc2)C1=O	-	MIC	broth dilution / turbidity	-	CCC 134-2000	Candida lusitaniae	62.5 µg/mL
C[C@@H](N1CCN(Cc2cn(Cc3cccc(C(F)(F)F)c3)c3ccccc23)CC1)[C@](O)(Cn1cncn1)c1ccc(F)cc1F	-	MIC80	resazurin	-	ATCC 90028	Candida albicans	0.125 µg/mL
CC1C(=O)N(CCc2ccccc2)C(=O)C1C	-	MIC	broth dilution / turbidity	-	CCC 134-2000	Candida lusitaniae	125 µg/mL
C=CCc1ccc(Cn2cc(CN3CCN([C@H](C)[C@](O)(Cn4cncn4)c4ccc(F)cc4F)CC3)c3ccccc32)cc1	-	MIC80	resazurin	-	ATCC 90028	Candida albicans	2 µg/mL
OB1OC(N2CCN(C3OB(O)c4ccccc43)CC2)c2ccccc21	-	MFC	turbidity	-	-	Candida tenuis	0.9 µg/mL
CCCCCCCn1cc[n+](COCCCCCCOC[n+]2ccn(CCCCCCC)c2)c1	-	MIC100	agar diffusion	-	ATCC 6258	Candida krusei	9 µM
Cc1ccc(-n2cc(C(C)(C)O)nn2)cc1C	2048 µg/mL	inhibition	broth dilution	-	URM 4818	Candida parapsilosis	0%
O=C(O)C(Cc1ccccc1)N1C(=O)CSC1c1ccccn1	-	EC50	broth dilution	-	-	Candida parapsilosis	80.64 µM
CC(=O)N1CCN(c2ccc(OC[C@H]3CO[C@](Cn4ccnc4)(c4ccc(Cl)cc4Cl)O3)cc2)CC1	-	EC90	broth dilution	pH 4	40 isolates	Candida glabrata	>16 µg/mL
OB1OC(N2CCOCC2)c2ccccc21	-	MFC	turbidity	-	-	Candida tenuis	62.5 µg/mL
CC(C)N=C(N)c1ccc2nc(-c3ccc4c(c3)Cc3cc(-c5nc6ccc(C(N)=NC(C)C)cc6[nH]5)ccc3-4)[nH]c2c1	-	Geometric mean MIC	-	-	21 strains	Candida albicans	1.56 µg/mL
CC(C)(O)c1cn(-c2ccccc2)nn1	2048 µg/mL	inhibition	broth dilution	-	URM 4889	Candida parapsilosis	0%
C[C@@H](N1CCN(Cc2cn(Cc3cccc(C(F)(F)F)c3)c3c(F)cccc23)CC1)[C@](O)(Cn1cncn1)c1ccc(F)cc1F	-	MIC80	resazurin	-	ATCC MYA-1003	Candida albicans	>128 µg/mL
COc1ccccc1C1SCC(=O)N1C(CC(C)C)C(=O)O	-	EC50	broth dilution	-	-	Candida parapsilosis	56.51 µM
O=C1S/C(=C\c2ccoc2)C(=O)N1CC(O)(Cn1nccn1)c1ccc(F)cc1F	-	MIC80	-	-	Fluconazole-resistant 0710922	Candida colliculosa	74 µg/mL
CC(C)(O)c1cn(-c2ccc([N+](=O)[O-])cc2)nn1	2048 µg/mL	inhibition	broth dilution	-	URM 4818	Candida parapsilosis	0%
C[C@@H](N1CCN(Cc2cn(Cc3ccc(Cl)cc3)c3c(F)cccc23)CC1)[C@](O)(Cn1cncn1)c1ccc(F)cc1F	-	MIC80	resazurin	-	ATCC 90028	Candida albicans	0.125 µg/mL
CCCCCOc1ccc(-c2ccc(-c3ccc(C(=O)N[C@H]4C[C@@H](O)[C@@H](O)NC(=O)[C@@H]5[C@@H](O)[C@@H](C)CN5C(=O)[C@H]([C@H](C)O)NC(=O)[C@H]([C@H](O)[C@@H](O)c5ccc(O)cc5)NC(=O)[C@@H]5C[C@@H](O)CN5C(=O)[C@H]([C@H](C)O)NC4=O)cc3)cc2)cc1	-	MIC50	-	-	-	Candida guilliermondii	0.06–4 µg/mL
CCC(C)CC(C)CCCCCCCCC(=O)N[C@H]1C[C@@H](O)[C@H](NCCN)NC(=O)[C@@H]2[C@@H](O)CCN2C(=O)[C@H]([C@H](O)CCN)NC(=O)[C@H]([C@H](O)[C@@H](O)c2ccc(O)cc2)NC(=O)[C@@H]2C[C@@H](O)CN2C(=O)[C@H]([C@@H](C)O)NC1=O	-	MIC	broth dilution	-	UTHSC 11-537	Candida lusitaniae	0.5 µg/mL
CCCCn1cc[n+](COCCCOC[n+]2ccn(CCCC)c2)c1	-	MIC100	agar diffusion	-	ATCC 6258	Candida krusei	2966 µM
OC(CCn1ccnc1)c1cccc(C(O)c2ccc(Cl)cc2)c1	-	MIC	broth dilution	-	RTCC 1019	Candida kefyr	8 µg/mL
CC1CC(=O)N(c2ccc(F)cc2)C1=O	-	MIC	broth dilution / turbidity	-	CCC 134-2000	Candida lusitaniae	250 µg/mL
CCC(C)CC(C)CCCCCCCCC(=O)N[C@H]1C[C@@H](O)[C@H](NCCN)NC(=O)[C@@H]2[C@@H](O)CCN2C(=O)[C@H]([C@H](O)CCN)NC(=O)[C@H]([C@H](O)[C@@H](O)c2ccc(O)cc2)NC(=O)[C@@H]2C[C@@H](O)CN2C(=O)[C@H]([C@@H](C)O)NC1=O	-	MIC	broth dilution	-	ATCC 96139	Candida orthopsilosis	0.0312 µg/mL
C[C@@H](N1CCN(Cc2cn(Cc3ccc(Cl)cc3Cl)c3cc(Cl)ccc23)CC1)[C@](O)(Cn1cncn1)c1ccc(F)cc1F	-	MIC80	resazurin	-	ATCC 90028	Candida albicans	0.125 µg/mL
Nc1ncccc1-c1cc(Cc2ccc(COc3ccccn3)cc2)no1	-	MIC50	broth dilution	-	-	Candida guilliermondii	<0.008 µg/mL
CCCCCCCn1cc[n+](COCCCCOC[n+]2ccn(CCCCCCC)c2)c1	-	MIC100	agar diffusion	-	ATCC 6258	Candida krusei	10 µM
Clc1ccc(COC(Cn2ccnc2)c2ccc(Cl)cc2Cl)c(Cl)c1	-	EC90	broth dilution	pH 7	40 isolates	Candida glabrata	0.5 µg/mL
N=c1oc2ccccc2c2csc(N)c12	-	MIC	broth dilution	-	-	Candida guilliermondii	128 µg/mL
O=C(CCn1ccnc1)c1cccc(C(O)c2ccc(Cl)cc2)c1	-	MIC	broth dilution	-	RTCC 1074	Candida kefyr	64 µg/mL
COc1ccccc1C1SC(C)C(=O)N1C(Cc1ccccc1)C(=O)O	-	EC50	broth dilution	-	-	Candida parapsilosis	81.27 µM
CCOc1ccc2nc3cc(N=C4NC(=O)/C(=C\c5ccc([N+](=O)[O-])o5)S4)ccc3c(N)c2c1	-	MIC	broth dilution	-	ATCC 8614	Candida kefyr	16.5 µg/mL
O=C(CCn1ccnc1)c1cccc(C(O)c2ccc(Br)cc2)c1	-	MIC	broth dilution	-	RTCC 1377	Candida guilliermondii	16 µg/mL
CCC(C)n1ncn(-c2ccc(N3CCN(c4ccc(OC[C@H]5CO[C@](Cn6cncn6)(c6ccc(Cl)cc6Cl)O5)cc4)CC3)cc2)c1=O	-	MIC	broth dilution	-	ATCC 96139	Candida orthopsilosis	0.0625 µg/mL
O/N=C\c1ccccc1O	-	MIC	-	-	-	Candida famata	1800 µM
CC1CC(=O)N(c2ccc(Br)cc2)C1=O	-	MIC	broth dilution / turbidity	-	CCC 134-2000	Candida lusitaniae	250 µg/mL
O=[N+]([O-])c1cccc(/C=N\O)c1	-	MIC100	-	-	-	Candida famata	3010 µM
CCCCCCCCCCCCCCn1cc[n+](COCCOC[n+]2ccn(CCCCCCCCCCCCCC)c2)c1	-	MIC100	agar diffusion	-	ATCC 6258	Candida krusei	2 µM

The last 4 rows once more:

structure	dose	measure	method	setting	strain	agent	result
O/N=C\c1ccccc1O	-	MIC	-	-	-	Candida famata	1800 µM
CC1CC(=O)N(c2ccc(Br)cc2)C1=O	-	MIC	broth dilution / turbidity	-	CCC 134-2000	Candida lusitaniae	250 µg/mL
O=[N+]([O-])c1cccc(/C=N\O)c1	-	MIC100	-	-	-	Candida famata	3010 µM
CCCCCCCCCCCCCCn1cc[n+](COCCOC[n+]2ccn(CCCCCCCCCCCCCC)c2)c1	-	MIC100	agar diffusion	-	ATCC 6258	Candida krusei	2 µM